# Screening data, single-dose tests

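Whole-cell growth test on Mycobacterium tuberculosis, read after 3 days in glucose-containing 7H9 medium; the read-out is not stated. Concentration: 50 µM. The record gives no direction; compounds that gave an IC50 in retests scored well above the rest, so higher reads as more growth inhibition. About 69,000 compounds were tested under these conditions; 1.1% (about 760) showed 50% or more at least once.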

The filed quantity is “Percent Effect” (%).
How 0% and 100% were set is not recorded. Most values in the screen are low, and negative values occur.
Many other results are left out here, so strong results are more common than in the screen.
Two or more numbers in one place are separate tests of the same structure; such repeats can differ widely.

compound: O=S(=O)(CCN1CCN(c2ccccc2O)CC1)c1ccc(Br)cc1
percent effect: 21.78

compound: O=C(c1cc(C2CC2)on1)N1CCC(Oc2ncccc2Br)CC1
percent effect: 34.07 and 52.9

compound: CCNC(c1ccc(F)cc1)c1cccnc1 (stereo not drawn)
percent effect: -13.53

compound: CC(C)c1ccc(CN2CCN(C(=O)c3cc(C4CC4)[nH]n3)CC2)cc1
percent effect: -4.413 and -31.98

compound: COc1ccc(C2=NOC(CO)C2)cc1 (stereo not drawn)
percent effect: 26.46

compound: CC(C)Nc1nc(N2CCCC2)nc2c1CN(C)CC2
percent effect: -0.6525

compound: CCc1[nH]c2c(CNc3nccc(N)n3)cc(F)cc2c1C
percent effect: 44.65

compound: CCn1cc(NC(=O)c2cccc(OCC(F)(F)F)n2)cn1
percent effect: 14.39

compound: O=C1CNc2ncnc(N3CCN(Cc4ccccc4F)CC3)c2N1
percent effect: 14.5

compound: Cl.Fc1ccc(Cc2cnc(C3CCCN3)cn2)cc1 (stereo not drawn)
percent effect: -7.778

compound: CCCc1nc(N(C)Cc2ccco2)c2c(n1)c(C)nn2CC
percent effect: 58.5

compound: Cc1nccn1CCCn1cncc1-c1ccc2c(c1)CCC(C)N2C.Cl (stereo not drawn)
percent effect: 43.25

compound: CCOCCCC(=O)Nc1cc(C(N)=O)ccc1N1CCCCC1
percent effect: -16.83

compound: CCN(CC)C(=O)CN1CCC2(C=Cc3cc(Cl)c(C)cc3O2)CC1
percent effect: 19.67

compound: CO[C@H]1CCN(c2nnc(C)s2)C[C@@H]1Cc1cccc(C)c1.O=C(O)C(F)(F)F
percent effect: 55.12 and 44.17

compound: OCC(CO)Nc1cccc(C(F)(F)F)n1
percent effect: 3.544

compound: CN(Cc1ccon1)C1CCN(c2cccc(-c3cscn3)c2)CC1
percent effect: 26.09

compound: CCCc1cc(C(=O)NCCCC(=O)N2Cc3ccccc3C2)[nH]n1
percent effect: 70.96

compound: Cc1c(Br)cccc1CSc1nnc(CO)n1C
percent effect: 3.12 and 6.393

compound: Cc1ccn(CCC(=O)NCc2ccco2)n1
percent effect: 33.7

compound: FC(F)(F)c1cccc(CN2CCOC[C@H](Oc3cccnc3)C2)c1
percent effect: 8.173 and -1.962

compound: CCNc1ncc2c(n1)CN(c1ccc(Cl)cc1)C2=O
percent effect: 26.92

compound: CCc1cc(=O)[nH]c(-c2ccc(NC(C)CN3CCOCC3)nc2)n1 (stereo not drawn)
percent effect: 12.09

compound: Cl.O=S(=O)(c1ccc(Cl)cc1)N1CCc2nc(C3CCNCC3)ncc2C1
percent effect: 53.63

compound: CC(=O)N1CCCN(Cc2cc(F)cc(Br)c2)CC1
percent effect: -23.31

compound: O=C1C(n2nnc(-c3ccsc3)n2)CCN1CC(F)(F)F (stereo not drawn)
percent effect: 29.14

compound: CC(C)Cc1noc(-c2ccc(NCc3noc(C(C)C)n3)nc2)n1
percent effect: 9.258 and 12.78

compound: c1ccc(-c2nccc(N3CCc4c(ncn4C4CC4)C3)n2)cc1
percent effect: 32.27

compound: CCN(Cc1c(F)cccc1Cl)c1cc(C2CCNCC2)nc(C)n1
percent effect: 63.18

compound: CSc1nnc(N(CCC#N)CCC#N)s1
percent effect: -23.45 and -3.07

compound: CN(C)C(=O)CN1CCCC1c1cccc(Cc2ccccc2F)n1 (stereo not drawn)
percent effect: 45.54

compound: CCc1ccc(C(=O)N2CCN(Cc3ccc(F)cc3)CC2)s1
percent effect: 69.34

compound: COc1cccc(NC(=O)Cn2c(=O)nc(N)c3cc(C)sc32)c1
percent effect: 3.761

compound: Cc1nc2c(c(NCc3ccc(-c4ccccn4)s3)n1)CCNCC2
percent effect: 5.268

compound: COc1ccc(C2CCCN2S(=O)(=O)N(C)C)cc1 (stereo not drawn)
percent effect: -3.523

compound: CCOc1ccc(N2CCCN=C2NC(=O)c2cccc(OC)c2)cc1
percent effect: -5.527

compound: Cc1nc(C)n(CC2CCCCN2CC(=O)Nc2nncs2)n1 (stereo not drawn)
percent effect: 5.844

compound: Cc1cc(C)n(-c2cncc(NCCNC(=O)C(C)C)n2)n1
percent effect: 16.35

compound: COc1ccc(OC)c(NC(=O)c2nc3ccccc3n(C)c2=O)c1
percent effect: 25.27

The last 5 entries again:

| compound | percent effect |
|---|---|
| `COc1ccc(C2CCCN2S(=O)(=O)N(C)C)cc1` (stereo not drawn) | -3.523 |
| `CCOc1ccc(N2CCCN=C2NC(=O)c2cccc(OC)c2)cc1` | -5.527 |
| `Cc1nc(C)n(CC2CCCCN2CC(=O)Nc2nncs2)n1` (stereo not drawn) | 5.844 |
| `Cc1cc(C)n(-c2cncc(NCCNC(=O)C(C)C)n2)n1` | 16.35 |
| `COc1ccc(OC)c(NC(=O)c2nc3ccccc3n(C)c2=O)c1` | 25.27 |

From ChEMBL document CHEMBL3988442, “University of Dundee, Small-Polar-MMV Screening Library” (2021).